The target in assay [1] is 所有突变型S1抗原或spike. As to the kind of experiment: SPR, Biacore T200; reference is the positive control antibody (北京百普赛斯). (Surface plasmon resonance follows binding to a sensor surface in real time, without labels.)
The target of assay [2] is 所有突变型S1抗原或spike. As to the kind of experiment: ELISA on coated antigen, anti human IgG HRP. Background: An ELISA detects its analyte on a solid surface through an enzyme-linked reagent.
Assay [3] deals with 所有突变型S1抗原或spike. As to the kind of experiment: ELISA on coated antigen; reference is the monovalent nanobody.
In assay [4] the target is 所有突变型S1抗原或spike. Description: SPR, Biacore T200; reference is the monovalent nanobody (Example 7, Table 4).
Assay [5] has as its target 所有突变型S1抗原或spike. As to the kind of experiment: SPR, Biacore T200, antigen coupled to CM5 chip, R-30-FC as analyte.

Some results are limits rather than exact numbers.

B1: R-30-FC (Fc fusion)
chain: QVQLQESGGGLVQSGGSLRLSCTASGGIIRLNSMGWYRQAPGKQREPVATIVSDVGTNYADSVKGRFTISRDNAKNTIYLQMNSLKFEDTAVYYCVADRAFVLRGEYEYWGQGTQVTVSS[human IgG1 Fc skipped]
For B1, the fold higher affinity than the positive control with 所有突变型S1抗原或spike [1] worked out at 10 fold. The EC50 in the assay with 所有突变型S1抗原或spike [2] was under 100 pM. The molecule further registered a fold improvement of EC50 over the monovalent nanobody with 所有突变型S1抗原或spike [3] of 20 fold. Moreover, the fold improvement of affinity constant over the monovalent nanobody with 所有突变型S1抗原或spike [4] stood at 20 fold. In the assay with 所有突变型S1抗原或spike [5], this molecule registered a Kd of 1 pM.

Broadly, the EC50 is the concentration needed to bring the measured effect to its halfway point. Low values mean an effect from little substance, high ones a need for much substance. What is called Kd is the free concentration of one partner at which half of the binding sites on the other are occupied at equilibrium, for simple one-to-one binding.

Values taken from patent CN117069831A.
